Measured values from several laboratories, pooled; numbers as filed in NIAID ChemDB.

Shared fields: whole-cell or culture tests; species: HIV-1; measure: EC50

Lines come from different laboratories, so protocols vary.

smiles,strain or isolate,conditions,read by,mutations,cells,value
Cc1c(Sc2ccccc2)n(COCCO)c(=O)[nH]c1=O,UC38-R(RT-Y181C,-,cytopathic effect / XTT,RT-Y181C,CEM + CEM-SS,0.4 µM
Nc1ncnc2c1ncn2[C@@H]1O[C@H](OCP(=O)(O)O)C=C1F,UG-92-024 (subtype D),4 d,p24 / ELISA / antigen,-,PBMCs,12.6 µM
CCOCn1c(Sc2cc(C)cc(C)c2)c(CC)c(=O)[nH]c1=O,IIIB,-,cytopathic effect / MTT / p24,-,PBL,0.0018 µM
CCN[C@H]1CO[C@@H]2OCC[C@H](OC(=O)N[C@@H](Cc3ccccc3)[C@H](O)CN(CC(C)C)S(=O)(=O)c3ccc4nc(NC5CC5)sc4c3)[C@@H]21,NL4-3,-,p24 / luminescence,-,MT-4,0.0033 µM
Nc1ncnc2c1ncn2C[C@@H](CO)OCP(=O)(O)O,IIIB,-,cytopathic effect / antigen / trypan blue,-,MT-4,>125 µM
CC(C)CN(C[C@@H](O)[C@H](Cc1ccccc1)NC(=O)[C@@H](NC(=O)CNCc1cccc(F)c1)C(C)(C)C)S(=O)(=O)c1cccc(N)c1,Clinical isolate E,-,virus yield,-,MT-2,<0.011 µM
CCN[C@H]1CO[C@@H]2OCC[C@H](OC(=O)N[C@@H](Cc3cccc(OC)c3)[C@H](O)CN(CC(C)C)S(=O)(=O)c3ccc4nc(NC(C)C)sc4c3)[C@@H]21,NL4-3,-,p24 / luminescence,L10F K20T D30N K45I A71V V77I,MT-4,0.0032 µM
COc1oc([C@H]2C/C(=C/C(C)=C/c3ccc(N(C)C)cc3)CO2)c(C)c(=O)c1C,LAI,-,fluorescence,-,PBMC + LC5-RIC,0.0146 µM
CCCc1cc(=O)oc2c3c(c4c(c12)OC(C)(C)C=C4)O[C@H](C)[C@@H](C)[C@@H]3O,Nevirapine-resistant (RT Y181C),-,XTT,RT-Y181C,CEM + CEM-SS,<0.01 µM
Nc1nc2c(ncn2C/C=N/OCP(=O)(O)O)c(=O)[nH]1,899A,-,absorbance,-,MT-4,85 µM
COc1oc([C@H]2C/C(=C/C(C)=C/c3ccc(NS(C)(=O)=O)cc3)CO2)c(C)c(=O)c1C,LAI,-,fluorescence,-,PBMC + LC5-RIC,>10 µM
CC(C)=CCN1Cc2cccc3[nH]c(=S)n(c23)C[C@@H]1C,IIIB,-,microscopy,-,CEM,0.01 µM
Cc1cn([C@H]2C[C@H](N=[N+]=[N-])[C@@H](COP(=O)(Oc3ccc(C#N)cc3)Oc3ccc(C#N)cc3)O2)c(=O)[nH]c1=O,IIIB,-,ELISA,-,C8166,0.0032 µM
C/C(Cn1cnc2c(N)ncnc21)=N\OCP(=O)(O)O,899A,-,absorbance,-,MT-4,100 µM
Nc1cccc(CN2C(=O)N(Cc3cccc(N)c3)[C@H](Cc3ccccc3)[C@H](O)[C@@H](O)[C@H]2Cc2ccccc2)c1,E (PR M46L V82V/I I84V/I),-,virus yield,PR-M46L V82V+I I84V+I,MT-2,<0.912 µM
CC[C@H](C)[C@@H](C(=O)O)n1sc2ccccc2c1=O,LAV-Bru,-,p24 / RT activity,-,PBMC,8.5 µM
Nc1ccn([C@H]2CC[C@@H](CO)O2)c(=O)n1,IIIB WT,5 d,cytopathic effect / XTT / RT activity,-,MT-2,4.3 µM
CC(C)CN(C[C@@H](O)[C@H](Cc1ccccc1)NC(=O)O[C@H]1CCOC1)S(=O)(=O)c1ccc(N)cc1,NL4-3,-,p24 / luminescence,L10F K20T D30N K45I A71V V77I,MT-4,0.059 µM
CC[C@H](C)[C@H](NC(=O)Cc1ccccn1)C(=O)N[C@@H](Cc1ccccc1)[C@@H](O)[C@H](O)[C@H](Cc1ccccc1)NC(=O)[C@@H](NC(=O)Cc1ccccn1)[C@@H](C)CC,RF,-,plaque count / virus yield,-,MT-2,0.9 µg/mL
Cc1cn([C@H]2C[C@H](N=[N+]=[N-])[C@@H](COP(=O)(Oc3ccc(C(F)(F)F)cc3)Oc3ccc(C(F)(F)F)cc3)O2)c(=O)[nH]c1=O,GB8)/1(IIIB,-,ELISA,-,JM,45 µM
CC(=O)Oc1ccccc1C(=O)O,IIIB,-,XTT / p24,-,MT-4,>1000 µM
CCOCn1c(Sc2cc(C)cc(C)c2)c(CC)c(=O)[nH]c1=S,IIIB,-,cytopathic effect / MTT / p24,-,PBL,0.0022 µM
Cc1cn([C@H]2C[C@H](N=[N+]=[N-])[C@@H](CO)O2)c(=O)[nH]c1=O,UG-92-031 (subtype A),4 d,p24 / ELISA / antigen,-,PBMCs,0.16 µM
Cc1cn([C@H]2C[C@H](N=[N+]=[N-])[C@@H](CO)O2)c(=O)[nH]c1=O,RF,-,cytopathic effect / XTT,-,C8166,10 µM
Cc1cn([C@H]2C[C@H](N=[N+]=[N-])[C@@H](COP(=O)(Oc3ccc(I)cc3)Oc3ccc(I)cc3)O2)c(=O)[nH]c1=O,GB8)/1(IIIB,-,ELISA,-,JM,10 µM
Cc1cn([C@H]2C[C@H](N=[N+]=[N-])[C@@H](CO)O2)c(=O)[nH]c1=O,SIKA,clinical isolate,cytopathic effect / XTT,-,PBMC,0.02 µM
c1ccc(C2OCc3nc4ccccc4n32)cc1,TIBO R82150-resistant (RT L100I),-,cytopathic effect / MTT,RT-L100I,CEM,11 µM
COc1oc([C@H]2C/C(=C/C(C)=C/c3cccc(Cl)c3)CO2)c(C)c(=O)c1C,LAI,-,fluorescence,-,PBMC + LC5-RIC,4.021 µM
OC[C@H]1NC[C@H](O)[C@@H](O)[C@@H]1O,IIIB,-,cell fusion,-,MOLT-4,50 µg/mL
Cc1cn([C@H]2C[C@H](N=[N+]=[N-])[C@@H](CO)O2)c(=O)[nH]c1=O,RF,-,cytopathic effect / MTS,-,CEM + CEM-SS,0.001 µM
CCOC(=O)[C@H](C)N[P@](=O)(CO[C@@H]1C=C(F)[C@H](n2cnc3c(N)ncnc32)O1)Oc1ccccc1,UG-92-031 (subtype A),4 d,p24 / ELISA / antigen,-,PBMCs,0.037 µM
Nc1nc2c(ncn2[C@H]2CC[C@@H](CO)O2)c(=O)[nH]1,IIIB,5 d,cytopathic effect / XTT / RT activity,-,MT-2,4.1 µM
Cc1ccnc2c1NC(=O)c1cccnc1N2C1CC1,Costatolide-resistant (RT L100I T139I),-,XTT,RT-L100I T139I,CEM + CEM-SS,0.2 µM
Oc1ccc(-c2c(-c3cc(O)cc(O)c3)oc3ccccc23)cc1,-,-,single cycle,-,-,25.9–47.3 µM
COc1oc([C@H]2C/C(=C/C(C)=C/c3ccc(C(F)(F)F)cc3Cl)CO2)c(C)c(=O)c1C,LAI,-,fluorescence,-,PBMC + LC5-RIC,0.0224 µM
Nc1nc2c(ncn2[C@H]2C=C[C@@H](CO)C2)c(=O)[nH]1,J4A ddC-resistant,5 d,cytopathic effect / XTT / RT activity,-,MT-2,1.2 µM
CCC[C@@]1(CCc2ccccc2)CC(O)=C([C@H](CC)c2cccc(NS(=O)(=O)c3ccc(C(F)(F)F)cn3)c2)C(=O)O1,NL4-3,-,p24 / luminescence,M46I V82F I84V,MT-4,0.4021 µM
CC(C)=CCN1Cc2cc(Cl)cc3[nH]c(=S)n(c23)C[C@@H]1C,-,-,-,RT-M41L T215Y L100I,MT-4,<3 µM
CCCc1cc(=O)oc2c3c(c4c(c12)OC(C)(C)C=C4)O[C@@H](C)[C@H](C)[C@@H]3O,Costatolide-resistant (RT Y188H),-,XTT,RT-Y188H,CEM + CEM-SS,>27 µM
CC(=O)N[C@H](C(=O)N[C@@H](Cc1ccc(OCc2ccccc2)cc1)[C@@H](O)[C@H](O)[C@H](Cc1ccc(OCc2ccccc2)cc1)NC(=O)[C@@H](NC(C)=O)C(C)C)C(C)C,RF,-,plaque count / virus yield,-,MT-2,<0.3 µg/mL
Nc1ncnc2c1ncn2[C@@H]1C=C[C@H](OCP(=O)(O)O)O1,IIIB,-,ATP,-,MT-2,5.9 µM
COC(=O)N[C@H](C(=O)N[C@@H](Cc1ccccc1)[C@@H](O)CN(Cc1ccc(-c2ccccn2)cc1)NC(=O)[C@@H](NC(=O)OC)C(C)(C)C)C(C)(C)C,NL4-3,-,p24 / luminescence,L10I N37D G48V I54V L63P G73C I84V L90M,MT-4,>1 µM
CC(=O)c1ccc(C)cc1NC(C(N)=O)c1c(Cl)cccc1Cl,HXB2,-,recombinant virus assay,-,-,0.017 µM
COc1ccc2cc([C@H](C)C(=O)O)ccc2c1,IIIB,-,XTT / p24,-,MT-4,>100 µM
CSc1ccc(OP(=O)(OC[C@H]2O[C@@H](n3cc(C)c(=O)[nH]c3=O)C[C@@H]2N=[N+]=[N-])Oc2ccc(SC)cc2)cc1,IIIB,-,ELISA,-,C8166,0.4 µM
NNC(=O)C(=O)NNc1ccccc1,NL4-3,-,luciferase / luminescence,-,-,7.11 µM
CC(C)=CCN1Cc2cc(Cl)cc3[nH]c(=S)n(c23)C[C@@H]1C,214,-,cytopathic effect / MTT,-,CEM + CEM-SS,0.161 µM
Cc1nc2ccccc2c(-c2ccc3c4c(ccnc24)[C@H]2C[C@@H]32)c1[C@H](OC(C)(C)C)C(=O)O,IIIB,-,ATP,-,MT-4,0.037 µM
CC(C)[C@H](NC(=O)Cc1ccccn1)C(=O)N[C@@H](Cc1ccccc1)[C@@H](O)[C@H](O)[C@H](Cc1ccccc1)NC(=O)[C@@H](NC(=O)Cc1ccccn1)C(C)C,RF,-,plaque count / virus yield,-,MT-2,<1.3 µg/mL
Fc1cccc(Cl)c1C1OCc2nc3ccccc3n21,Pyridinone-resistant (RT Y181C),-,cytopathic effect / MTT,RT-Y181C,CEM,≥14.69 µM
Cc1cn([C@H]2C[C@H](N=[N+]=[N-])[C@@H](CO)O2)c(=O)[nH]c1=O,RF,-,p24 / RT activity,-,U-937,0.029 µM
CC(C)OC(=O)OCOP(=O)(CO[C@H](C)Cn1cnc2c(N)ncnc21)OCOC(=O)OC(C)C,IIIB,7 d,XTT / p24,-,MT-2,0.007 µM
CN[C@H]1CO[C@@H]2OCC[C@H](OC(=O)N[C@@H](Cc3ccccc3)[C@H](O)CN(CC(C)C)S(=O)(=O)c3ccc4nc(NC5CC5)sc4c3)[C@@H]21,NL4-3,-,p24 / luminescence,L10F K20T D30N K45I A71V V77I,MT-4,0.0024 µM
CCOCn1c(Sc2cc(C)cc(C)c2)c(C(C)C)c(=O)[nH]c1=S,IIIB,-,microscopy,-,CEM,0.0008 µM
CC(C)CN(C[C@@H](O)[C@H](Cc1ccccc1)NC(=O)[C@@H](NC(=O)CNCc1cccc(F)c1)C(C)(C)C)S(=O)(=O)c1ccc(N)cc1,RF,-,virus yield,-,MT-2,<0.0078 µM
COc1oc([C@H]2C/C(=C/C(C)=C/c3ccc(Cl)cc3)CO2)c(C)c(=O)c1C,LAI,-,fluorescence,-,PBMC + LC5-RIC,0.0005 µM
Cc1cn([C@H]2C[C@H](N=[N+]=[N-])[C@@H](CO)O2)c(=O)[nH]c1=O,KMR15,-,cytopathic effect / trypan blue,-,MT-4,0.016 µM
COc1oc([C@H]2C/C(=C/C(C)=C/c3ccc(C(=O)O)cc3)CO2)c(C)c(=O)c1C,LAI,-,fluorescence,-,PBMC + LC5-RIC,10.8 µM
Cc1occc1C(=S)Nc1ccc(Cl)c(/C=N/OC(C)(C)C)c1,Costatolide-resistant (RT L100I T139I),-,XTT,RT-L100I T139I,CEM + CEM-SS,2.6 µM
Cc1cn([C@H]2C[C@H](N=[N+]=[N-])[C@@H](CO)O2)c(=O)[nH]c1=O,689,-,ELISA,-,PBMC,0.02 µM
COc1oc([C@H]2C/C(=C/C(C)=C/c3ccc(OC(C)=O)cc3)CO2)c(C)c(=O)c1C,LAI,-,fluorescence,-,PBMC + LC5-RIC,0.0749 µM
Cc1cn([C@H]2C[C@H](N=[N+]=[N-])[C@@H](CO)O2)c(=O)[nH]c1=O,NL4-3,-,XTT,RT-V106I,CEM + CEM-SS,0.003 µM

A second listing of 6 rows from above:

smiles | strain or isolate | conditions | read by | mutations | cells | value
Cc1cn([C@H]2C[C@H](N=[N+]=[N-])[C@@H](COP(=O)(Oc3ccc(C#N)cc3)Oc3ccc(C#N)cc3)O2)c(=O)[nH]c1=O | IIIB | - | ELISA | - | C8166 | 0.0032 µM
CC(=O)N[C@H](C(=O)N[C@@H](Cc1ccc(OCc2ccccc2)cc1)[C@@H](O)[C@H](O)[C@H](Cc1ccc(OCc2ccccc2)cc1)NC(=O)[C@@H](NC(C)=O)C(C)C)C(C)C | RF | - | plaque count / virus yield | - | MT-2 | <0.3 µg/mL
CC(C)CN(C[C@@H](O)[C@H](Cc1ccccc1)NC(=O)[C@@H](NC(=O)CNCc1cccc(F)c1)C(C)(C)C)S(=O)(=O)c1ccc(N)cc1 | RF | - | virus yield | - | MT-2 | <0.0078 µM
CC(C)CN(C[C@@H](O)[C@H](Cc1ccccc1)NC(=O)O[C@H]1CCOC1)S(=O)(=O)c1ccc(N)cc1 | NL4-3 | - | p24 / luminescence | L10F K20T D30N K45I A71V V77I | MT-4 | 0.059 µM
CC(C)[C@H](NC(=O)Cc1ccccn1)C(=O)N[C@@H](Cc1ccccc1)[C@@H](O)[C@H](O)[C@H](Cc1ccccc1)NC(=O)[C@@H](NC(=O)Cc1ccccn1)C(C)C | RF | - | plaque count / virus yield | - | MT-2 | <1.3 µg/mL
Cc1cn([C@H]2C[C@H](N=[N+]=[N-])[C@@H](CO)O2)c(=O)[nH]c1=O | RF | - | p24 / RT activity | - | U-937 | 0.029 µM

An empty or dashed field is not shown. ECn: concentration that inhibits the pathogen or its effect by n%. Two numbers with a dash give a range or band.